Values from PubChem BioAssay AID504761 (Drosophila RNAi Screening Center, 2011).

- Screen: 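Insect host genes that dengue virus relies on to spread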 (primary screen)
- Cell system: D.Mel-2 cells from Drosophila
- Reagent: long dsRNA against Drosophila genes
- Treatment: infection with dengue virus type 2; dose and infection time not stated
- Detection: 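Cells stained for dengue envelope protein and imaged; percent of infected cells per well on duplicate plates, ranked by infection, with stained nuclei counted for cell number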
- Direction: infection score: higher = more virus-infected cells; cell count: higher = more cells in the well
- Active means: 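Very low infection ranking in both replicate wells (chance probability at most 0.065), then a retest showing infection dropped 1.5-fold or more at p below 0.05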
- Calls: active = confirmed: knock-down lowers infection; inactive = not picked or not confirmed
The deposit covers about 22,000 reagents; below is a random part of those with a known target gene and a result. Of all reagents, 116 (0.52%) are marked active. 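Calls depend on retest data that are not deposited; infection was ranked per plate without normalising between plates; the unit of the infection score is not given.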 The raw values are shown without normalisation. A number with no mark means an inactive call. Names joined by + are all predicted targets of the reagent. The record does not give: the amount of reagent, the time to read-out.

Knock-down of Chi [DRSC04602] came out at: infection score, replicate 1 = 5.22; infection score, replicate 2 = 28.8; cell count, replicate 1 = 6243; cell count, replicate 2 = 5368.
Depletion of Chi [DRSC28484] resulted in: infection score, replicate 1 = 2.51; infection score, replicate 2 = 13.4; cell count, replicate 1 = 1197; cell count, replicate 2 = 2405.
With knock-down of Mat89Ba [DRSC14540] the results were infection score, replicate 1 = 11.3; infection score, replicate 2 = 11.4; cell count, replicate 1 = 5947; cell count, replicate 2 = 5951.
Against Mat89Ba [DRSC29166], the entry reads infection score, replicate 1 = 9.64; infection score, replicate 2 = 12.5; cell count, replicate 1 = 4068; cell count, replicate 2 = 5610.
Silencing of t-Grip128 [DRSC07853] resulted in: infection score, replicate 1 = 1.33; infection score, replicate 2 = 0.97; cell count, replicate 1 = 6374; cell count, replicate 2 = 5981.
t-Grip128 [DRSC26796] scored infection score, replicate 1 = 10.6; infection score, replicate 2 = 3.18; cell count, replicate 1 = 6529; cell count, replicate 2 = 6893.
Against CG6209 [DRSC06968], the entry reads infection score, replicate 1 = 26.9; infection score, replicate 2 = 7.4; cell count, replicate 1 = 4829; cell count, replicate 2 = 6477.
Against CG6209 [DRSC28800], the entry reads infection score, replicate 1 = 19.6; infection score, replicate 2 = 20.4; cell count, replicate 1 = 5947; cell count, replicate 2 = 5569.
With knock-down of antr [DRSC22392], the record shows infection score, replicate 1 = 1.12; infection score, replicate 2 = 4.13; cell count, replicate 1 = 6072; cell count, replicate 2 = 6779.
After knock-down of CG34423 + Mthfs [DRSC04088] the results were infection score, replicate 1 = 10.5; infection score, replicate 2 = 7.7; cell count, replicate 1 = 3007; cell count, replicate 2 = 2714.
CG30487 [DRSC05377] scored infection score, replicate 1 = 0.82; infection score, replicate 2 = 2.34; cell count, replicate 1 = 6194; cell count, replicate 2 = 5717.
Depletion of APC10 [DRSC06071] gave: infection score, replicate 1 = 25.8; infection score, replicate 2 = 25.1; cell count, replicate 1 = 5505; cell count, replicate 2 = 4852.
For CG3655 [DRSC18181], the entry reads infection score, replicate 1 = 16.1; infection score, replicate 2 = 0.69; cell count, replicate 1 = 4338; cell count, replicate 2 = 6365.
After knock-down of CG3655 [DRSC18477], the screen gave infection score, replicate 1 = 7.69; infection score, replicate 2 = 0.65; cell count, replicate 1 = 2029; cell count, replicate 2 = 6820.
Against CG3655 [DRSC22688], the values are infection score, replicate 1 = 1.82; infection score, replicate 2 = 1.24; cell count, replicate 1 = 7079; cell count, replicate 2 = 7325.
CG14618 [DRSC20631] scored infection score, replicate 2 = 3.58; cell count, replicate 1 = 199; cell count, replicate 2 = 6063.
Depletion of LBR [DRSC04298] came out at: infection score, replicate 1 = 17.2; infection score, replicate 2 = 31.7; cell count, replicate 1 = 7094; cell count, replicate 2 = 5758.
Against LBR [DRSC29462], the values are infection score, replicate 1 = 18.2; infection score, replicate 2 = 24; cell count, replicate 1 = 5383; cell count, replicate 2 = 1891.
For ph-p [DRSC18820] the deposit lists infection score, replicate 1 = 9.84; infection score, replicate 2 = 1.41; cell count, replicate 1 = 5671; cell count, replicate 2 = 6371.
Depletion of Obp51a [DRSC22412] gave: infection score, replicate 1 = 1.42; infection score, replicate 2 = 0.67; cell count, replicate 1 = 5711; cell count, replicate 2 = 6400.
Silencing of CG17816 [DRSC15277] resulted in: infection score, replicate 1 = 0.88; infection score, replicate 2 = 2.26; cell count, replicate 1 = 6794; cell count, replicate 2 = 6633.
For CG17816 [DRSC29783], the entry reads infection score, replicate 1 = 3.33; infection score, replicate 2 = 4.62; cell count, replicate 1 = 6329; cell count, replicate 2 = 5630.

Sorted by “infection score, replicate 2” (low to high): 3 of the entries above.
t-Grip128 [DRSC07853] — infection score, replicate 1 = 1.33; infection score, replicate 2 = 0.97; cell count, replicate 1 = 6374; cell count, replicate 2 = 5981
t-Grip128 [DRSC26796] — infection score, replicate 1 = 10.6; infection score, replicate 2 = 3.18; cell count, replicate 1 = 6529; cell count, replicate 2 = 6893
CG6209 [DRSC06968] — infection score, replicate 1 = 26.9; infection score, replicate 2 = 7.4; cell count, replicate 1 = 4829; cell count, replicate 2 = 6477
